Measured values: PubChem BioAssay AID504406 (Broad Institute, 2011)
Only a part is listed here, and it is no random draw. Calls of active or inactive are those of the source. Rule as the data show it: active = inhibition above about 10% (passing the limit was not always enough); inconclusive = no clear call, values can overlap the other calls.

The chains behind the UniProt entries cited, without tags or fusion partners.
UniProt P9WIQ1, whole entry: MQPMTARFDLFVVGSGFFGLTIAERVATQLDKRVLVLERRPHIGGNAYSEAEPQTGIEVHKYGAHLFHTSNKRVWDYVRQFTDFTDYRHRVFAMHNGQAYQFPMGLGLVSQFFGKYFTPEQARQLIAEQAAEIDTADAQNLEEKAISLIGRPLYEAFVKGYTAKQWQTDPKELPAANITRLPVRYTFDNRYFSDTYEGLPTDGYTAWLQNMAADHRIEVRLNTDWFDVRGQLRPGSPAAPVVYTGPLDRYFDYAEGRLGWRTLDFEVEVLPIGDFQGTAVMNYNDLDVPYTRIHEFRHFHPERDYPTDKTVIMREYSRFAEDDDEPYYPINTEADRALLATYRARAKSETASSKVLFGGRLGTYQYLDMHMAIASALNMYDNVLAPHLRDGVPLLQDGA

Each compound was assayed against UDP-galactopyranose mutase (Mycobacterium tuberculosis (strain ATCC 25618 / H37Rv)) (UniProt P9WIQ1) (assay: M. tuberculosis UGM enzyme inhibitors, primary screen, biochemical, fluorescence polarization, single point (AID 504406)). Details: purified UGM, fluorescence polarization probe displacement; at 10 µM; active compounds read high.

Compound | inhibition
COc1ccc(NP(C)(=O)Oc2ccccc2OC)cc1 (configuration not stated) | inactive: 1.4%
CN(C)CCOC(=O)C(O)(c1ccccc1)C1CCCCC1 (configuration not stated) | inactive: 0.108%
COc1ccc(OP(C)(=O)Nc2cccc(Br)c2)cc1 (configuration not stated) | inactive: 0.692%
O=[N+]([O-])c1cc([N+](=O)[O-])c(NCC2CCS(=O)(=O)C2)c([N+](=O)[O-])c1 (configuration not stated) | inactive: 1.69%
O=[N+]([O-])c1ccc(OP2(=O)COCCO2)cc1 (configuration not stated) | inactive: -5.05%
CCOP(C)(=S)SCC(=O)NC(C)(CC)C(=O)O (configuration not stated) | inactive: 0.346%
CP(=O)(Nc1ccc(SC(F)(F)F)cc1)Oc1ccc(F)cc1 (configuration not stated) | inactive: 0.31%
Cc1ccccc1NP(C)(=O)Nc1ccccc1C | inactive: 0.384%
CP(=O)(Nc1ccc2c(c1)OCCO2)Oc1ccccc1 (configuration not stated) | inactive: -0.473%
CC(C)c1ccc(OP(C)(=O)Nc2ccc(SC(F)(F)F)cc2)cc1 (configuration not stated) | inactive: 1.11%
CP(=O)(Nc1ccccc1F)Oc1ccccc1 (configuration not stated) | inactive: 0.127%
O=C(OCCN1CCN(CCOCc2ccccc2)CC1)C(O)(c1ccccc1)c1ccccc1 | inactive: 1.36%
O=C(OC1CN2CCC1CC2)c1ccc([N+](=O)[O-])cc1 (configuration not stated) | inactive: 3.22%
COc1ccc(OP(C)(=O)Nc2ccc(SC(F)(F)F)cc2)cc1 (configuration not stated) | inactive: 0.899%
CCOC(=O)c1ccc(NP(C)(=O)Oc2ccc(F)cc2)cc1 (configuration not stated) | inactive: -0.419%
O=[N+]([O-])c1cc([N+](=O)[O-])c(OC2CCCCC2O)c([N+](=O)[O-])c1 (configuration not stated) | inactive: -0.119%
CCCCCOc1ccc(NP(C)(=O)Oc2ccc(Cl)cc2Cl)cc1 (configuration not stated) | inactive: -1.19%
CP(=O)(Nc1ccccc1)Oc1ccc(F)cc1 (configuration not stated) | inactive: -0.17%
CCN(CC)CCCOC(=O)C(O)(c1ccccc1)C1CCCCC1 (configuration not stated) | inactive: 0.95%
COc1ccc(OP(C)(=O)Nc2ccccc2Br)cc1 (configuration not stated) | inactive: -0.892%
COc1ccccc1OP(C)(=O)Nc1ccc(C)c(C)c1 (configuration not stated) | inactive: 0.356%
Cc1cc(C)cc(OP(C)(=O)Nc2cccc(C(F)(F)F)c2)c1 (configuration not stated) | inactive: 0.584%
CP(=O)(Nc1ccc(Cl)cc1Cl)Oc1ccccc1 (configuration not stated) | inactive: -1.18%
CP(=O)(OCCOc1ccccc1)OCCOc1ccccc1 | inactive: -4.33%
Cc1nc2ccc3ccccc3c2o1.O=[N+]([O-])c1cc([N+](=O)[O-])c(O)c([N+](=O)[O-])c1 | inactive: 1.81%
CN(C)CCOC(=O)C(O)(c1ccccc1)C1CCCC1 (configuration not stated) | inactive: -6.18%
COc1ccc(OP(C)(=O)Nc2ccccn2)cc1 (configuration not stated) | inactive: 0.957%
